In patent US11407715B2, “Substituted indoline derivatives as dengue viral replication inhibitors” (JANSSEN PHARMACEUTICALS, INC., priority 2017, dated 2022):
The source's definition of the ratio is not given here.

Key:
Type in all cases: cell-based, Dengue virus
[1] = tested on: DENV-1 strain TC974#666; assay: Tetravalent RT-qPCR assay, serotype 1; conditions: RT-qPCR serotype 1 TC974#666; selectivity index
Experimental: (§1) The antiviral activity of the compounds of the invention was tested against DENV-1 strain TC974#666 (NCPV), DENV-2 strain 16681, DENV-3 strain H87 (NCPV) and DENV-4 strain H241 (NCPV) in a RT-qPCR assay. Therefore, Vero cells were infected with either DENV-1, or -2, or -3, or -4 in the presence or absence of test compounds. At day 3 post-infection, the cells were lysed and cell lysates were used to prepare cDNA of both a viral target (the 3′UTR of DENV; Table 2) and a cellular reference gene (β-actin, Table 2). Subsequently, a duplex real time PCR was performed on a Lightcycler480 instrument. The generated Cp value is inversely proportional to the amount of RNA expression of these targets. Inhibition of DENV replication by a test compound results in a shift of Cp's for the 3′UTR gene. On the other hand, if a test compound is toxic to the cells, a similar effect on β-actin expression will be observed. The comparative ΔΔCp method is used to calculate ECs50, which is based on the relative gene expression of the target gene (3′UTR) normalized with the cellular housekeeping gene (β-actin). In addition, CC50 values are determined based on the Cp values acquired for the housekeeping gene β-actin.
(§2) The culture medium consisted of minimal essential medium supplemented with 2% of heat-inactivated fetal calf serum, 0.04% gentamycin (50 mg/mL) and 2 mM of L-glutamine. Vero cells, obtained from ECACC, were suspended in culture medium and 75 μL/well was added in 96-well plates (10000 cells/well), which already contain the antiviral compounds. […] In addition, each plate contains wells which are assigned as virus controls (containing cells and virus in the absence of compound) and cell controls (containing cells in the absence of virus and compound). Once the cells were added in the plates, the plates were incubated in a fully humidified incubator (37° C., 5% CO2) until the next day. Dengue viruses serotype-1, 2, 3 and 4 were diluted in order to obtain a Cp of ˜22-24 in the assay. Therefore, 25 μL of virus suspension was added to all the wells containing test compound and to the wells assigned as virus control. In parallel, 25 μL of culture medium was added to the cell controls. Next, the plates were incubated for 3 days in a fully humidified incubator (37° C., 5% CO2). After 3 days, the supernatant was removed from the wells and the cells were washed twice with ice-cold PBS (˜100 μL). The cell pellets within the 96-well plates were stored at −80° C. for at least 1 day. Next, RNA was extracted using the Cells-to-CT™ lysis kit, according to the manufacturer's guideline (Life Technologies). The cell lysates can be stored at −80C or immediately used in the reverse transcription step.
(§3) In preparation of the reverse transcription step, mix A (table 3A) was prepared and 7.57 μL/well was dispensed in a 96-well plate. After addition of 5 μL of the cell lysates, a five minute denaturation step at 75° C. was performed (table 3B). Afterwards, 7.43 μL of mix B was added (table 3C) and the reverse transcription step was initiated (table 3D) to generate cDNA.
(§4) Finally, a RT-qPCR mix was prepared, mix C (table 4A), and 22.02 μL/well was dispensed in 96-well LightCycler qPCR plates to which 3 μL of cDNA was added and the qPCR was performed according to the conditions in table 4B on a LightCycler 480.
(§5) Using the LightCycler software and an in-house LIMS system, dose response curves for each compound were calculated and the half maximal effective concentration (EC50) and the half maximal cytotoxic concentration (CC50) were determined (Tables 5-8).

[2] = tested on: DENV-2 strain 16681; assay: Tetravalent RT-qPCR assay, serotype 2; conditions: RT-qPCR serotype 2 16681; selectivity index
Experimental: as §1, §2, §3, §4, §5

[3] = tested on: DENV-3 strain H87; assay: Tetravalent RT-qPCR assay, serotype 3; conditions: RT-qPCR serotype 3 H87; selectivity index
Experimental: as §1, §2, §3, §4, §5

[4] = tested on: DENV-4 strain H241; assay: Tetravalent RT-qPCR assay, serotype 4; conditions: RT-qPCR serotype 4 H241; selectivity index
Experimental: as §1, §2, §3, §4, §5

Row | Compound | SI [1] | SI [2] | SI [3] | SI [4]
1 | COc1cc(NC(C(=O)N2CCc3ccc(OC(F)(F)F)cc32)c2ccc(Cl)cc2)cc(OCCC(C)(C)C(=O)O)c1 (single isomer, unassigned) [Compound 2A] | >7920 | >6500 | >390 | 125
2 | COc1cc(NC(C(=O)N2CCc3ccc(OC(F)(F)F)cc32)c2ccc(Cl)cc2)cc(OCC2CC2C(=O)O)c1 (stereo not shown) [Compound 6AB] | >133413 | >187753 | >15300 | >425
3 | COc1cc(NC(C(=O)N2CCc3ccc(OC(F)(F)F)cc32)c2ccc(Cl)cc2)cc(OCC2(F)CC2C(=O)O)c1 (stereo not shown) [Compound 28AB] | >4260 | >5530 | >277 | 158
4 | COc1cc(NC(C(=O)N2CCc3ccc(OC(F)(F)F)cc32)c2ccc(Cl)cc2)cc(OCC2CC2C(=O)O)c1 (stereo not shown) [Compound 6BB] | >24100 | >23700 | >1320 | 205
5 | COc1cc(NC(C(=O)N2CCc3cc(OC)c(C(F)(F)F)cc32)c2ccc(Cl)cc2)cc(OCCC(C)(C)C(=O)O)c1 (single isomer, unassigned) [Compound 21B] | >1950 | >12700 | >357 | 115
6 | COc1cc(NC(C(=O)N2CCc3cc(F)c(OC(F)(F)F)cc32)c2ccc(Cl)cc2)cc(OC2CC(C(=O)O)C2)c1 (single isomer, unassigned) [Compound 27B] | >114234 | >92800 | >22600 | 9330
7 | COc1cc(NC(C(=O)N2CCc3ccc(OC(F)(F)F)cc32)c2ccc(Cl)cc2)cc(OCCC(=O)O)c1 (single isomer, unassigned) [Compound 12B] | >8660 | >8920 | >401 | 318
8 | COc1cc(NC(C(=O)N2CCc3cc(OC)c(C(F)(F)F)cc32)c2ccc(Cl)cc2)cc(OCC2CC2C(=O)O)c1 (stereo not shown) [Compound 22BB] | >1740 | >9450 | >245 | 126
9 | COc1cc(NC(C(=O)N2CCc3ccc(OC(F)(F)F)cc32)c2ccc(Cl)cc2)cc(OCCC(C)C(=O)O)c1 (single isomer, unassigned) [Compound 1D] | >11400 | >9200 | >949 | 280
10 | COc1cc(NC(C(=O)N2CCc3ccc(OC(F)(F)F)cc32)c2ccc(Cl)cc2)cc(OC2CC(C(=O)O)C2)c1 (stereo not shown) [Compound 8B] | >38900 | >54100 | >7020 | 8240
11 | COc1cc(NC(C(=O)N2CCc3ccc(OC(F)(F)F)cc32)c2ccc(Cl)cc2)cc(OCC2CC(C(=O)O)C2)c1 (stereo not shown) [Compound 10B] | >18700 | >27400 | >1370 | >57
12 | COc1cc(NC(C(=O)N2CCc3cc(OC)c(C(F)(F)F)cc32)c2ccc(Cl)cc2)cc(OCCC(C)C(=O)O)c1 (single isomer, unassigned) [Compound 20D] | >1820 | >7660 | >178 | >21
13 | COc1cc(NC(C(=O)N2CCc3ccc(OC(F)(F)F)cc32)c2ccc(Cl)cc2)cc(OC23CC(C(=O)O)(C2)C3)c1 (single isomer, unassigned) [Compound 9B] | >2080 | >2680 | >203 | 372
14 | COc1cc(NC(C(=O)N2CCc3ccc(OC(F)(F)F)cc32)c2ccc(Cl)cc2OC)cc(OCCC(C)C(=O)O)c1 (single isomer, unassigned) [Compound 17C] | >8230 | >13700 | >401 | 95
15 | COc1cc(NC(C(=O)N2CCc3ccc(OC(F)(F)F)cc32)c2ccc(Cl)cc2)cc(OCC2(CC(=O)O)CC2)c1 (single isomer, unassigned) [Compound 5A] | >1930 | >3220 | >170 | 206
16 | COc1cc(NC(C(=O)N2CCc3ccc(OC(F)(F)F)cc32)c2ccc(Cl)cc2)cc(OCC2(F)CC2C(=O)O)c1 (stereo not shown) [Compound 29AB] | >5680 | >5180 | >264 | 118
17 | COc1cc(CCCC(=O)O)cc(NC(C(=O)N2CCc3ccc(OC(F)(F)F)cc32)c2ccc(Cl)cc2)c1 (single isomer, unassigned) [Compound 15B] | >6280 | >4310 | >525 | 456
18 | COc1cc(NC(C(=O)N2CCc3cc(OC)c(C(F)(F)F)cc32)c2ccc(Cl)cc2)cc(OCCC(C)C(=O)O)c1 (single isomer, unassigned) [Compound 20C] | >4540 | >19200 | >249 | >60
19 | COc1cc(NC(C(=O)N2CCc3cc(OC)c(C(F)(F)F)cc32)c2ccc(Cl)cc2)cc(OCC2CC2C(=O)O)c1 (stereo not shown) [Compound 22AB] | >15700 | >46400 | >4430 | 2890
20 | COc1cc(CCCCC(=O)O)cc(NC(C(=O)N2CCc3ccc(OC(F)(F)F)cc32)c2ccc(Cl)cc2)c1 (single isomer, unassigned) [Compound 14A] | >6140 | >5890 | >584 | 510
21 | COc1cc(NC(C(=O)N2CCc3ccc(OC(F)(F)F)cc32)c2ccc(Cl)cc2)cc(OCC2(F)CC2C(=O)O)c1 (stereo not shown) [Compound 29BB] | >30400 | >60200 | >3050 | 2790
22 | COc1cc(NC(C(=O)N2CCc3ccc(OC(F)(F)F)cc32)c2ccc(Cl)cc2OC)cc(OCCC(C)(C)C(=O)O)c1 (single isomer, unassigned) [Compound 18B] | >2220 | >4590 | >281 | 148
23 | COc1cc(NC(C(=O)N2CCc3ccc(OC(F)(F)F)cc32)c2ccc(Cl)cc2OC)cc(OCC2CC2C(=O)O)c1 (stereo not shown) [Compound 19BB] | >13300 | >14100 | >1910 | 905
24 | COc1cc(NC(C(=O)N2CCc3ccc(OC(F)(F)F)cc32)c2ccc(Cl)cc2)cc(OCC2CC(C(=O)O)C2)c1 (stereo not shown) [Compound 11B] | >11800 | >22400 | >1650 | 273
25 | COc1cc(NC(C(=O)N2CCc3ccc(OC(F)(F)F)cc32)c2ccc(Cl)cc2)cc(OCC(C)CC(=O)O)c1 (single isomer, unassigned) [Compound 4C] | >61000 | >51900 | >1660 | >73
26 | COc1cc(NC(C(=O)N2CCc3cc(OC)c(C(F)(F)F)cc32)c2ccc(Cl)cc2)cc(OCC2CC(C(=O)O)C2)c1 (stereo not shown) [Compound 24B] | >898 | >11300 | >123 | 115
27 | COc1cc(NC(C(=O)N2CCc3ccc(OC(F)(F)F)cc32)c2ccc(Cl)cc2)cc(OCCC(C)C(=O)O)c1 (single isomer, unassigned) [Compound 1C] | >11000 | >15300 | >1300 | 427
28 | COc1cc(NC(C(=O)N2CCc3cc(F)c(OC(F)(F)F)cc32)c2ccc(Cl)cc2)cc(OCC2CC(C(=O)O)C2)c1 (stereo not shown) [Compound 31A] | >6090 | >11600 | >791 | 445
